Results of unrelated studies side by side (data: NIAID ChemDB).

All rows: growth or infection tests; organism: Mycobacterium bovis BCG; measure: MIC

Two numbers with a dash give a range or band. Neighbouring rows are from separate reports.

{"smiles": "NC(=O)c1c(NC(=O)C2CC2)sc2cc(O)c(Br)cc12", "read by": "resazurin / absorbance", "result": ">100 µM"}
{"smiles": "COc1ccc(-c2c(C)c(C(=O)O)nc(-c3ccc4c(O)c(OC)c5c(c4n3)=NC(C)(C)N=5)c2N)c(O)c1OC", "strain": "Pasteur", "result": "50 µM"}
{"smiles": "CC(=O)OC(C)=O", "strain": "1173P2", "read by": "resazurin", "setting": "48 h", "result": "500 µg/mL"}
{"smiles": "COC(=O)c1c(C)ccc2c(O)c3c(cc12)C(=O)c1c2c(cc(O)c1C3=O)C1(C)OC(C)(O2)C(O)C(N(C)C)C1O", "strain": "Pasteur", "result": "25 µM"}
{"smiles": "COC(=O)C#CC(=O)OC", "strain": "1173P2", "read by": "resazurin", "setting": "48 h", "result": "7.75 µg/mL"}
{"smiles": "C[N+](C)(CCCCCC[N+](C)(C)CCCN1C(=O)c2cccc3cccc(c23)C1=O)CCCN1C(=O)c2cccc3cccc(c23)C1=O", "strain": "Pasteur", "result": "12.5 µM"}
{"smiles": "C#CC(O)CCCCC", "strain": "1173P2", "read by": "resazurin", "setting": "24 h", "result": "125 µg/mL"}
{"smiles": "C/C(=N\\Nc1ccc2ccccc2n1)c1ccccc1O", "strain": "Pasteur", "result": ">100 µM"}
{"smiles": "CNc1ccc2oc(C[C@@H]3OC4(CC[C@@H]3C)O[C@H](C(C)C(=O)c3ccc[nH]3)[C@H](C)C[C@H]4C)nc2c1C(=O)O", "strain": "1173P2", "read by": "resazurin", "result": "1.25 µg/mL"}
{"smiles": "C=C(NC(=O)C(=C)NC(=O)c1csc(C2=NC3CC4(C2)NC(=O)C(C)NC(=O)C(=C)NC(=O)C(=C)NC(=O)C(C(C)C)NC2C=Cc5c(C(C)O)cc(nc5C2O)C(=O)OC(C)C(NC(=O)c2csc(n2)C(C(C)(O)C(C)O)NC(=O)C2CSC(=N2)/C(=C\\C)NC(=O)C(C(C)O)NC(=O)c2csc4n2)c2nc3cs2)n1)C(N)=O", "strain": "Pasteur", "result": "6.25 µM"}
{"smiles": "CC[C@@H](C(=O)[C@@H](C)[C@@H](O)[C@H](C)[C@@H]1O[C@@H]([C@@H](CC)C(=O)O)CC[C@@H]1C)[C@H]1O[C@@]2(C=C[C@@H](O)[C@@]3(CC[C@@](C)([C@H]4CC[C@](O)(CC)[C@H](C)O4)O3)O2)[C@H](C)C[C@@H]1C", "strain": "1173P2", "read by": "resazurin", "result": "6.25 µg/mL"}
{"smiles": "C#CC(C)OC(C)=O", "strain": "1173P2", "read by": "resazurin", "setting": "48 h", "result": "125 µg/mL"}
{"smiles": "CO[C@H]1/C=C/O[C@@]2(C)Oc3c(C)c(O)c4c(O)c(c(/C=N/N5CCN(C)CC5)c(O)c4c3C2=O)NC(=O)/C(C)=C\\C=C\\[C@H](C)[C@H](O)[C@@H](C)[C@@H](O)[C@@H](C)[C@H](OC(C)=O)[C@@H]1C", "strain": "Pasteur", "read by": "resazurin", "result": "0.0019 µg/mL"}
{"smiles": "CC(C)CC(=O)OC(=O)CC(C)C", "strain": "1173P2", "read by": "resazurin", "setting": "24 h", "result": "125 µg/mL"}
{"smiles": "CC(C)CCOc1ccc(NC(=S)Nc2ccc(OCCC(C)C)cc2)cc1", "strain": "Pasteur", "read by": "resazurin", "result": "5–10 µg/mL"}